{
  "source": "paper PMC9271922",
  "origin": "cited, not measured here",
  "molecular_target": "TLR4 (Homo sapiens) (UniProt O00206)",
  "data": [
    {"substance": "Spike protein trimer (from UniProt P0DTC2)", "values": [
      {"measurement": "Kd", "value": 0.3, "unit": "µM"}
    ]}
  ]
}
